Data taken from ChEMBL document CHEMBL1129527, “Synthesis, chromatographic resolution, and anti-human immunodeficiency virus activity of (+/-)-calanolide A and its enantiomers” (J Med Chem, 1996).

What was measured:
[1] = Percent inhibition against TIBO-resistant HIV-1 RT Nucleic Acid polymerase at dose 200 ug/mL; conditions: Human immunodeficiency virus 1
[2] = system: HIV-1 reverse transcriptase (Human immunodeficiency virus 1); experiment: Percent inhibition against DNA -dependent DNA polymerase (DDDP) of HIV-1 RT Nucleic Acid polymerase at dose 200 ug/mL
[3] = system: HIV-1 reverse transcriptase (Human immunodeficiency virus 1); experiment: Percent inhibition against RNA-dependent DNA polymerase (RDDP) of HIV-1 RT Nucleic Acid polymerase at dose 200 ug/mL

In the case of `CCCc1cc(=O)oc2c3c(c4c(c12)OC(C)(C)C=C4)O[C@H](C)[C@@H](C)[C@@H]3O` [CALANOLIDE A], the inhibition [1] is reported as 91.5%.
With `CCCc1cc(=O)oc2c3c(c4c(c12)OC(C)(C)C=C4)O[C@@H](C)[C@H](C)[C@@H]3O` [COSTATOLIDE] the inhibition [1] was 0%.
Molecule `CCCc1cc(=O)oc2c3c(c4c(c12)OC(C)(C)C=C4)O[C@@H](C)C(C)[C@@H]3O` (mixture of isomers) has an inhibition [2] of 80.1%, an inhibition [3] of 97.6% and an inhibition [1] of 81.2%.
